Measured values from article PMC2217675, “Quantitative High-Throughput Screen Identifies Inhibitors of the Schistosoma mansoni Redox Cascade” (PLoS Neglected Tropical Diseases, 2008).
pIC50: −log10 of the molar value.

Amino acid sequences for entries named in this document (tags omitted). Residues count along the entry.
UniProt Q962Y6, 1-598: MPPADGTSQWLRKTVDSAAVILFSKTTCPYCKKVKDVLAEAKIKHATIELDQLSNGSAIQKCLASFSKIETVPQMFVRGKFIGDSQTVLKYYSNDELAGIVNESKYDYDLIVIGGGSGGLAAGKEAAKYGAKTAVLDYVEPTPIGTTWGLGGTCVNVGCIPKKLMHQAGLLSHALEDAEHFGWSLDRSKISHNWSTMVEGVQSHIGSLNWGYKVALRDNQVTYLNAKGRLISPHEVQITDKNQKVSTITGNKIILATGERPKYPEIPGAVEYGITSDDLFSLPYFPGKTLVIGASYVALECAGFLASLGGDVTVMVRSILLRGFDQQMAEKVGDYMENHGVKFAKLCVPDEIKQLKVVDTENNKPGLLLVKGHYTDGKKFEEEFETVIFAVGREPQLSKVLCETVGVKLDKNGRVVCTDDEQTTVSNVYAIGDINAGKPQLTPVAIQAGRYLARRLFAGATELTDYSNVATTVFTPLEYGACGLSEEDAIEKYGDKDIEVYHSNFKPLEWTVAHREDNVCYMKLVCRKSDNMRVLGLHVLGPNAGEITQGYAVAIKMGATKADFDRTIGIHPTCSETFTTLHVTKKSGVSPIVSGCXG

Target: S. mansoni TGR/Prx2 (Schistosoma mansoni, UniProt Q962Y6)
Conditions: read-out: qHTS IC50; initial high throughput screen of the collection; 25 nM TGR, 50 nM Prx2

Compound: CCN1C(=O)c2cccc3cccc1c23
- pIC50: 5.41
